Results from article PMC5515891 (Scientific Reports, 2017).

By UniProt entry, the sequences of proteins in these tests, tags left out. Residues count along the entry.
UniProt Q7DDI3, 20-272 limits assumed: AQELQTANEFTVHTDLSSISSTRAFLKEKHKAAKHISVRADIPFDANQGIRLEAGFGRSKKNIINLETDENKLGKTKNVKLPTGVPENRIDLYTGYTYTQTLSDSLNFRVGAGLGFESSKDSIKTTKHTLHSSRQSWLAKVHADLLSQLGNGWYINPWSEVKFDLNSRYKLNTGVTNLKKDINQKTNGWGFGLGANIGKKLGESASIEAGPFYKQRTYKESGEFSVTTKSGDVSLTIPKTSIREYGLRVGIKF

Target: Opc (Neisseria meningitidis, UniProt Q7DDI3)
Test: isothermal titration calorimetry
Format: binding
Conditions: Opc+ outer membrane preparation (4 mg/ml, PBS) in cell, 100 µM glycan in syringe; Opc- preparation and PBS controls subtracted

## CC(=O)N[C@H]1[C@H]([C@H](O)[C@H](O)CO)O[C@@](O[C@H]2[C@@H](O)[C@@H](CO)O[C@@H](O[C@H]3[C@H](O[C@@H]4O[C@@H](C)[C@@H](O)[C@@H](O)[C@@H]4O)[C@@H](NC(C)=O)C(O)O[C@@H]3CO)[C@@H]2O)(C(=O)O)C[C@@H]1O (stereo partly shown)
  Kd: 593 nM
